Where a SMILES comes first, the peptide text is derived from it. [ ]: non-standard residue; d: D form. The star is where a group is joined. Phe(4-NH2) = Nc1ccc(C[C@H](N)C(=O)O)cc1; Pentanoyl = CCCCC(=O)*
Key:
[1] = CD spectroscopy in SUVs; conditions: 8 µM peptide, SUVs DOPG/CL, phosphate buffer 5 mM
[2] = CD spectroscopy in SUVs; conditions: 8 µM peptide, SUVs DOPG/DOPE/CL, phosphate buffer 5 mM
[3] = Membrane fluidity, Laurdan generalised polarisation; conditions: Gram negative mimicking membranes, 25 °C
[4] = Thioflavin T peptide aggregation in LUVs; conditions: peptide 5–50 µM

SMILES: CCCCC(=O)Nc1ccc(C[C@H](N)C(=O)N[C@H](C(=O)N2CCC[C@H]2C(=O)N[C@@H](Cc2c[nH]c3ccccc23)C(=O)N[C@@H](Cc2ccccc2)C(=O)N[C@@H](CO)C(=O)N[C@@H](CCCCN)C(=O)N[C@@H](Cc2ccccc2)C(=O)N[C@H](CC(C)C)C(=O)N[C@H](CCCCN)C(=O)N[C@@H](CCCNC(=N)N)C(=O)N[C@H](C(=O)N[C@@H](CC(C)C)C(N)=O)[C@@H](C)CC)C(C)C)cc1 [C, H-Phe(4-NHCO(CH2)3CH3)-Val-Pro-Trp-Phe-Ser-Lys-Phe-DLeu-DLys-Arg-Ile- Leu-NH2] (H-[Phe(4-NH2)](Pentanoyl)VPWFSKF[dL][dK]RIL-NH2)
- θ222/θ208 Gram-positive mimicking membranes [1]: 1.2
- θ222/θ208 Gram-negative mimicking membranes [2]: 1.2
- generalised polarisation (GP) LUVs + 5 µM Compound [3]: 0.07
- generalised polarisation (GP) LUVs + 30 µM Compound [3]: 0.15
- ThT aggregation in membrane (in words) [4]: drastic increase of fluorescence

Reference: publication PMC7534258, “Novel temporin L antimicrobial peptides: promoting self-assembling by lipidic tags to tackle superbugs” (Journal of Enzyme Inhibition and Medicinal Chemistry, 2020)
